We go through one substance from patent US20220213151, “COMPOSITIONS AND METHODS FOR TREATMENT OF DISTENTABLE TISSUES” (published 2022).

pKd: −log10 of the molar value. Like-named read-outs stand apart in the source and are kept apart here.

For assay [1], the target named is rhu EGFR (Fc), human (rhu), P00533 25-645. The experiment in a line: SPR, captured rhuEGFR (~275 RU), single 300 nM injection; buffer: PBS P pH 7.4. (Surface plasmon resonance follows binding to a sensor surface in real time, without labels.)
Assay [2] shares this target. The experiment in a line: SPR, captured rhuEGFR (~275 RU), single 300 nM injection; buffer: PBS P pH 6.0.
The target is the same in assay [3]. Description: SPR, captured rhuEGFR (~275 RU), single 300 nM injection; buffer: PBS P.
Assay [4] has the same target.
Assay [5] has the same target. The experiment in a line: SPR, captured rhuEGFR (~275 RU), single 300 nM injection; buffer: PBS P pH 8.0.

What is called pKd is the negative decadic logarithm of the Kd, by convention in mol/L. The low end stands for a large Kd, the high end for a small Kd. As usually defined, the koff is the first-order rate constant of dissociation. A low value points to a long-lived complex. Consider A-dmDT390-EGF-Kd+, for which the pKd in assay [1] is 10.12; in assay [2], 8.89; in assay [3] it was 10.12; in assay [4], 9.56; in assay [5], 10.15. Moreover, the koff in assay [1] was 3.66e-05 s⁻¹; in assay [2], 0.000351 s⁻¹; in assay [3], 3.66e-05 s⁻¹; in assay [4] it was 6.95e-05 s⁻¹; in assay [5], 4.07e-05 s⁻¹. Also, the kon in assay [1] was 479000 m^-1 s^-1; in assay [2], 273000 m^-1 s^-1; in assay [3] it was 479000 m^-1 s^-1; in assay [4] it was 252000 m^-1 s^-1; in assay [5], 581000 m^-1 s^-1.
